Assay results taken from patent publication US20110104263A1.

Target: T1, GST-Cldn4.R4 (GST-Ecl2.CT, Aa 138-210) (mouse), O35054
T1 chain: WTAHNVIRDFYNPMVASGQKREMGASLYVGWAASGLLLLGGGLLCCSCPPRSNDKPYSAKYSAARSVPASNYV
Experiment: SPR, biotinylated peptide on SA chip, GST-Cldn4.R4 analyte, 1:1 Langmuir fit

Work on SLDAGQYVLVMKANSSYSGNYPYSILFQKF (modifications not checked) [Biotin(B)-PEG10-Cpe30] yielded a Kd of 9.87 nM, a koff of 0.00128 s⁻¹ and a kon of 130000 M⁻¹ s⁻¹.
